Compound potency records, mixed from different reports. Data source: NIAID ChemDB in PubChem.

Shared fields: tests in culture; agent: Mycobacterium tuberculosis

MIC bound comes from a single tested concentration.

compound	tested at	measure	mutations	strain or isolate	method	result
Cc1ccc(S(=O)(=O)NNC(=O)c2cc(C)c(C)cc2NCC(O)C(O)C(O)CO)cc1	-	MIC	-	H37Rv	BACTEC	≥12.5 µg/mL
CC1=CC[C@]2(C)CC[C@]3(C)C(=O)C=C(C(C)C)[C@@H]3[C@H]2CC1	-	EC50	-	H37Rv	resazurin	>6.25 µg/mL
CN1CCCc2c(Oc3ccccc3)cccc21	-	MIC	-	-	-	>0.14 µg/mL
C[C@H]1COc2c(N3CCN(C)CC3)c(F)cc3c(=O)c(C(=O)O)cn1c23	-	MIC	-	2888-3	-	0.5 µg/mL
CC(C)N(C(=S)Nc1ccccc1)c1ccc(F)c(Cl)c1	-	MIC	-	-	visual reading	>400 µg/mL
O=C1C=C(Nc2ncccn2)c2ccccc2C1=O	-	MIC bound	-	H37Rv	resazurin	<6.25 µg/mL
O=C1NC(=S)N/C1=C/c1cccc(OCc2ccccc2)c1	-	EC50	-	H37Rv	BACTEC	<6.25 µg/mL
Cc1nc(N)c2ncn([C@@H]3O[C@H](CO)[C@@H](O)[C@H]3O)c2n1	-	MIC	-	Ciprofloxacin-resistant	-	6.25 µg/mL
Fc1ccc(N(C(=S)Nc2ccccc2)C2CCCCC2)cc1Cl	-	MIC	-	-	visual reading	400 µg/mL
Cc1ccc(O)c(C(=O)NCc2ccc(C(C)(C)C)cc2)c1	-	MIC	-	My 331/88	-	32 µg/mL
CCn1cc(C(=O)O)c(=O)c2cc(F)c(N3CCN(C)CC3)cc21	-	MIC90	-	58 isolates	-	8 µg/mL
CC1=NN(C(=O)c2ccc(C)cc2)C(=O)C1N=Nc1ccccc1C(=O)O	-	MIC	-	H37Rv	BACTEC	≥12.5 µg/mL
CCc1cc(C(N)=S)ccn1	-	MIC	-	-	visual reading	3.12 µg/mL
O=C1NC(=S)N/C1=C/c1cccc(Oc2ccccc2)c1	-	EC50	-	H37Rv	BACTEC	<6.25 µg/mL
CC(C)N=c1cc2n(-c3ccc(Cl)cc3)c3ccccc3nc-2cc1Nc1ccc(Cl)cc1	-	MIC	-	MTB9 (RIF-resistant)	-	0.5 µg/mL
COC(=O)C1COC(C(C)(C)C)N1C=O	12.5 µg/mL	inhibition	-	H37Rv	BACTEC	25%
Clc1ccc(Nc2cc3nc4ccccc4n(-c4ccc(Cl)c(Cl)c4)c-3cc2=NC2CCNCC2)cc1Cl	-	MIC	-	2219 (INH RIF-RES)	-	0.12 µg/mL
CC1(C)OC2C(O)C(O)C3OC(C)(C)OC3C2O1	-	MIC bound	-	H37Rv	BACTEC	>12.5 µg/mL
COc1cc(C)c(/C=C2/NC(=S)NC2=O)cc1C	6.25 µg/mL	inhibition	-	H37Rv	BACTEC	43%
CCCCOC(=S)SSC(=S)NCCNC(=S)SSC(=S)OCCCC	6.25 µg/mL	inhibition	-	H37Rv	resazurin	51%
CCc1nc2ccc(Cl)cn2c1C(=O)NCc1ccc(N2CCC3(CC2)OC[C@H](C)O3)c(F)c1	-	MIC90	-	H37Rv	resazurin	<2 µM
S=C(Nc1ccccc1)N(c1ccc(Cl)c(Cl)c1)C1CCCCC1	1000 µg/mL	zone	-	-	visual reading	13.93 mm
Cc1ncc([N+](=O)[O-])n1CCNC(=O)Cn1c([N+](=O)[O-])cnc1C	6.25 µg/mL	inhibition	-	H37Rv	resazurin	2%
CCN1CN(NC(=O)c2ccncc2)CSC1=S	-	MIC	-	-	-	25 µg/mL
CCCCS(=O)(=O)Nc1ccc2[nH]c(C(=O)NCc3cccc(F)c3)c(C)c2c1	-	MIC90	-	H37Rv	resazurin	>100 µM
O=C1NC(=S)N/C1=C/c1cc(F)cc(F)c1	-	EC50	-	H37Rv	BACTEC	<6.25 µg/mL
CCc1cc(C(N)=S)ccn1	-	MIC	-	PETH80	-	20 µg/mL
Clc1nc(-c2ccccc2)nc2c1ncn2Cc1ccccc1	-	EC50	-	H37Rv	BACTEC	<12.5 µg/mL
Cc1ccc(O)c(C(=S)NCc2ccc(Cl)cc2)c1	-	MIC	-	My 331/88	-	0.5 µg/mL
CCOC(=O)c1[nH]c2ccc(NC(=O)OC(C)(C)C)cc2c1C	-	MIC90	-	H37Rv	resazurin	>100 µM
Cc1cc(O)c2c(c1)C(=O)C=C(c1c(C)cc(O)c3c1C(=O)C=CC3=O)C2=O	-	MIC	-	-	-	10 µg/mL
Clc1nc2c(-c3cccs3)ncnc2n1Cc1ccccc1	-	EC50	-	H37Rv	BACTEC	>12.5 µg/mL
O=C1NC(=S)N/C1=C/c1cccc(C(F)(F)F)c1	-	EC50	-	H37Rv	BACTEC	>6.25 µg/mL
COc1ccc(-c2csc(NN=Cc3ccc4c(c3)c3ccccc3n4C)n2)cc1OC	-	EC50	-	H37Rv	fluorescence	28 µM
Cc1ccn2c(C(=O)NCc3ccc(N4CCSCC4)c(F)c3)c(C)nc2c1	-	MIC90	-	H37Rv	resazurin	<2 µM
O=C1NC(=S)N/C1=C\c1ccc(O)cc1	6.25 µg/mL	inhibition	-	H37Rv	BACTEC	46%
CCc1nc2ccc(Cl)cn2c1C(=O)NCc1ccc(N2CCN(c3ccc(S(F)(F)(F)(F)F)cc3)CC2)cc1	-	MIC90	-	H37Rv	resazurin	<2 µM
CN1CN(NC(=O)c2ccncc2)CSC1=S	-	MIC	-	-	-	100 µg/mL
Cn1c(=O)c(C(=O)NC23CC4CC(CC(C4)C2)C3)c(O)c2ccccc21	6.25 µg/mL	inhibition	-	H37Rv	resazurin	10%
CNC(=S)N(c1ccc(Cl)c(Cl)c1)C(C)C	-	MIC	-	-	visual reading	>400 µg/mL
COc1ccc(C(=O)Nc2ccc(C(=O)N/N=C/c3ccc(F)cc3)cc2)cc1	6.25 µg/mL	inhibition	-	H37Rv	-	2%
O=C1c2ccccc2C(=O)c2c1nc1sccn21	12.5 µg/mL	inhibition	-	H37Rv	BACTEC	96%
Cn1c2ccccc2c2cc(C=NNc3nc(-c4cccs4)cs3)ccc21	-	EC50	-	H37Rv	fluorescence	>50 µM
COC1CCCC(OC2CCCC(OC)C2)C1	-	MIC	-	-	-	>0.13 µg/mL
COc1ccc(C(=O)Nc2ccc(C(=O)N/N=C/c3ccc(Cl)cc3)cc2)cc1	6.25 µg/mL	inhibition	-	H37Rv	-	3%
OC1CCCCC1C1CCCCC1CBr	-	MIC	-	-	-	1 µg/mL
NNC(=O)c1ccncc1	-	MIC	DG167-resistant	DRM167 32x11	resazurin	0.19 µM
CCCCS(=O)(=O)Nc1ccc2[nH]c(C#N)c(C)c2c1	-	MIC90	P206T DG167-resistant	DRM167 32x2	resazurin	>100 µM
CCCOc1ccc(/C=C2/NC(=S)NC2=O)cc1	6.25 µg/mL	inhibition	-	H37Rv	BACTEC	95%
Cn1c2ccccc2c2cc(C=NNc3nc(-c4cc5ccccc5oc4=O)cs3)ccc21	-	EC50	-	H37Rv	fluorescence	>25 µM
Cc1cn2c(C(=O)NCc3ccc4c(c3)CCO4)c(C)nc2s1	-	MIC90	-	H37Rv	resazurin	2–10 µM
Cn1c2ccccc2c2cc(C=NNc3nc(-c4cccc(F)c4)cs3)ccc21	-	EC50	-	H37Rv	fluorescence	>200 µM
C[C@@H]1CN(c2c(F)c(N)c3c(=O)c(C(=O)O)cn(C4CC4)c3c2F)C[C@H](C)N1	-	MIC	-	MDR-2 (MDR)	-	0.2 µg/mL
CC1=CC(C)(C)Nc2ccc(CSc3ccccc3)cc21	-	MIC bound	-	H37Rv	BACTEC	>12.5 µg/mL
Cc1ccc2nc(C)c(C(=O)NCc3ccc4c(c3)CCO4)n2c1	-	MIC90	-	H37Rv	resazurin	<2 µM
O=CN(Cc1cnccn1)Cc1cnccn1	-	MIC	-	H37Rv	BACTEC	≥12.5 µg/mL
Cn1c2ccccc2c2cc(C=NNc3nc(-c4ccccc4O)cs3)ccc21	-	MIC	-	H37Rv	fluorescence	31 µM
C(=C\c1ncnc2c1ncn2Cc1ccccc1)/c1ccccc1	-	EC50	-	H37Rv	BACTEC	<12.5 µg/mL
O=C1NC(=S)N/C1=C/c1cccc(OCCc2ccccc2)c1	6.25 µg/mL	inhibition	-	H37Rv	BACTEC	93%
Nc1nc(/C=C/c2ccccc2)c2ncn(Cc3ccccc3)c2n1	-	EC50	-	H37Rv	BACTEC	>12.5 µg/mL
COC(=O)C1Cc2c([nH]c3ccccc23)C2CCC(=O)N12	6.25 µg/mL	inhibition	-	H37Rv	resazurin	4%
CCCCS(=O)(=O)Nc1ccc2[nH]c(C(=O)NC3CCCOC3)c(C)c2c1	-	MIC90	-	H37Rv	resazurin	6.2 µM
O=C1OC(C(O)CO)C(O)=C1Nc1ccc(S(=O)(=O)c2ncc(NC3=C(O)C(C(O)CO)OC3=O)s2)cc1	12.5 µg/mL	inhibition	-	H37Rv	BACTEC	9%
COc1ccc(NC(=S)NNC(=O)c2ccc(NC(=O)c3ccc(OC)cc3)cc2)cc1	6.25 µg/mL	inhibition	-	H37Rv	-	0%
O=C1NC(=S)N/C1=C/c1cccc(Br)c1	-	EC50	-	H37Rv	BACTEC	<6.25 µg/mL
CC1=CC[C@]2(C)C[C@H](O)[C@@]3(C)[C@H](C(C(C)C)=C[C@@H]3O)[C@H]2CC1	6.25 µg/mL	inhibition	-	H37Rv	resazurin	30%
N#Cc1c(Nc2cccc(Cl)c2)sc(C(=O)c2cc3cc(Cl)ccc3o2)c1N	-	MIC bound	-	H37Rv	BACTEC	>12.5 µg/mL
Cc1ccn2c(C(=O)NCc3ccc(N4CCS(=O)(=O)CC4)c(F)c3)c(C)nc2c1	-	MIC90	-	H37Rv	resazurin	<2 µM
NNC(=O)c1ccncc1	-	MIC	-	H37Rv	resazurin / absorbance	0.04 µg/mL
CCC(C)N(C(=S)Nc1ccccc1)c1ccc(Cl)c(Cl)c1	-	MIC	-	-	visual reading	>400 µg/mL
CCCCCS(=O)(=O)Nc1ccc2[nH]c(C(=O)O)c(C)c2c1	-	MIC90	-	H37Rv	resazurin	12.5 µM
CC1(C)OC2OC(CO)C(NC(=O)C(F)(F)F)C2O1	-	MIC bound	-	H37Rv	BACTEC	>12.5 µg/mL
Oc1cc(Br)ccc1C(=S)NCc1ccc(Cl)c(Cl)c1	-	MIC	-	My 331/88	-	4 µg/mL
Cn1c2ccccc2c2cc(C=NNc3nc(-c4ccc(Cl)cc4)cs3)ccc21	-	EC50	-	H37Rv	fluorescence	>200 µM
CCN(CC)c1ccc2nc3c4ccccc4c(=N)cc-3oc2c1	-	MIC	-	CS-R	-	0.8 µg/mL
Cc1ccn2c(C(=O)NCc3ccnc(N4CCC(c5ccc(C(F)(F)F)cc5)CC4)c3)c(C)nc2c1	-	MIC90	-	H37Rv	resazurin	<2 µM
CC[C@H]1OC(=O)[C@H](C)[C@@H](O[C@H]2C[C@@](C)(OC)[C@@H](O)[C@H](C)O2)[C@H](C)[C@@H](O[C@@H]2O[C@H](C)C[C@H](N(C)C)[C@H]2O)[C@](C)(OC)C[C@@H](C)C(=O)[C@H](C)[C@@H](O)[C@]1(C)O	-	MIC	-	MDR-3948 (MDR)	-	>8 µg/mL
COc1ccc(C(=O)Nc2ccc(C(=O)N/N=C/c3ccc(Br)cc3)cc2)cc1	-	MIC	-	H37Rv	-	>6.25 µg/mL
C1CCC2C(C1)COC1CCCCC12	-	MIC	-	-	-	>0.1 µg/mL
C=C1C(=O)O[C@H]2[C@@H]3O[C@H](C[C@@H]12)[C@](C)(O)CC/C=C(\C)CCC[C@H]3C	-	MIC	-	H37Rv	BACTEC	≥12.5 µg/mL
CCN=c1cc2n(-c3ccc(Cl)cc3)c3ccccc3nc-2cc1Nc1ccc(Cl)cc1	-	MIC	-	2230 (SM INH RIF-RES)	-	0.06 µg/mL
COc1ccc(C(=O)Nc2ccc(C(=O)NN3C(=O)CSC3c3ccc(Cl)cc3)cc2)cc1	-	MIC	-	H37Rv	-	>6.25 µg/mL
CN1C(=O)CNC(=O)c2ccc(Cl)cc21	-	MIC bound	-	H37Rv	BACTEC	>12.5 µg/mL
COc1ccc(O)c(C(=S)NCc2cccc(Cl)c2)c1	-	MIC	-	My 331/88	-	0.5 µg/mL
O=C[C@@H](O)[C@@H](O)[C@H](O)[C@H](O)CO	6.25 µg/mL	inhibition	-	H37Rv	resazurin	15%
CCOc1cc(/C=N/NC(=O)c2ccc(NC(=O)c3ccc(OC)cc3)cc2)ccc1O	6.25 µg/mL	inhibition	-	H37Rv	-	0%
COc1ccc(-c2cc(-c3ccco3)c(C#N)c(=S)n2C2OC(COC(C)=O)C(OC(C)=O)C(OC(C)=O)C2OC(C)=O)cc1	12.5 µg/mL	inhibition	-	H37Rv	BACTEC	0%
CC(C)N(C(=S)Nc1ccccc1)c1ccc(Cl)c(Cl)c1	1000 µg/mL	zone	-	-	visual reading	11.92 mm

The first 9 rows once more:

| compound | tested at | measure | mutations | strain or isolate | method | result |
|---|---|---|---|---|---|---|
| Cc1ccc(S(=O)(=O)NNC(=O)c2cc(C)c(C)cc2NCC(O)C(O)C(O)CO)cc1 | - | MIC | - | H37Rv | BACTEC | ≥12.5 µg/mL |
| CC1=CC[C@]2(C)CC[C@]3(C)C(=O)C=C(C(C)C)[C@@H]3[C@H]2CC1 | - | EC50 | - | H37Rv | resazurin | >6.25 µg/mL |
| CN1CCCc2c(Oc3ccccc3)cccc21 | - | MIC | - | - | - | >0.14 µg/mL |
| C[C@H]1COc2c(N3CCN(C)CC3)c(F)cc3c(=O)c(C(=O)O)cn1c23 | - | MIC | - | 2888-3 | - | 0.5 µg/mL |
| CC(C)N(C(=S)Nc1ccccc1)c1ccc(F)c(Cl)c1 | - | MIC | - | - | visual reading | >400 µg/mL |
| O=C1C=C(Nc2ncccn2)c2ccccc2C1=O | - | MIC bound | - | H37Rv | resazurin | <6.25 µg/mL |
| O=C1NC(=S)N/C1=C/c1cccc(OCc2ccccc2)c1 | - | EC50 | - | H37Rv | BACTEC | <6.25 µg/mL |
| Cc1nc(N)c2ncn([C@@H]3O[C@H](CO)[C@@H](O)[C@H]3O)c2n1 | - | MIC | - | Ciprofloxacin-resistant | - | 6.25 µg/mL |
| Fc1ccc(N(C(=S)Nc2ccccc2)C2CCCCC2)cc1Cl | - | MIC | - | - | visual reading | 400 µg/mL |

ECn is the concentration giving n% inhibition of infection, replication or growth. MIC50, MIC90 and the like: level of inhibition, or share of isolates inhibited. Two numbers with a dash give a range or band. An empty or dashed field is not shown. Lines come from different laboratories, so protocols vary. Zones are inhibition diameters on agar. Inhibition is in % at the dose shown (toxicity tests: loss of growth or viability).